Assay results reported in paper PMC7150935 (Toxins, 2020).

Protein sequences, listed by entry. Tags and fused reporters are not part of them. Lines headed by an entry give the natural chain unless they say otherwise; changes in a name come on top. Residues count along the entry.
UniProt Q9GZZ6, 25-450 limits assumed: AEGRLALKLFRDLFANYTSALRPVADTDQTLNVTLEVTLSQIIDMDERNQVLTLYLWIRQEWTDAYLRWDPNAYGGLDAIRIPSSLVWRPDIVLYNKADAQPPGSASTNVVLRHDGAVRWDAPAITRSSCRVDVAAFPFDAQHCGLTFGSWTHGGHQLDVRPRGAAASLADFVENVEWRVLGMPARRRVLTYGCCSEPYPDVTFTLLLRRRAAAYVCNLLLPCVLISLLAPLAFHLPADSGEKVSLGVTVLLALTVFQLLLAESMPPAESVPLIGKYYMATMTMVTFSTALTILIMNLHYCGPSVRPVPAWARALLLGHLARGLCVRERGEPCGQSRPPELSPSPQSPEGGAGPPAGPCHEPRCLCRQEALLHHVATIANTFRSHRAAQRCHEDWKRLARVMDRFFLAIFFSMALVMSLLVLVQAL
UniProt Q9UGM1, 26-479 limits assumed: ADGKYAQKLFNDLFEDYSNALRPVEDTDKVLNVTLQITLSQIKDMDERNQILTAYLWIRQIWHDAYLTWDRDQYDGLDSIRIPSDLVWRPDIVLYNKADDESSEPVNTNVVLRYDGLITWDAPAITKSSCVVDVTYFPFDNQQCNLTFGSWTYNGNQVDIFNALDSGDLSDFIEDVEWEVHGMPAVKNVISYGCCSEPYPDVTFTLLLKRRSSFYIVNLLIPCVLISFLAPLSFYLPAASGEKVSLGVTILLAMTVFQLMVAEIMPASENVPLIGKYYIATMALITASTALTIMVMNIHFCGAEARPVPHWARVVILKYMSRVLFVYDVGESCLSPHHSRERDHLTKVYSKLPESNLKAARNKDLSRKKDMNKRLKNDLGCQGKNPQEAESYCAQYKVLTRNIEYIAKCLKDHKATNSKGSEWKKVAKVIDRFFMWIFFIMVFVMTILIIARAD
UniProt P11230, 24-501 partner limits assumed: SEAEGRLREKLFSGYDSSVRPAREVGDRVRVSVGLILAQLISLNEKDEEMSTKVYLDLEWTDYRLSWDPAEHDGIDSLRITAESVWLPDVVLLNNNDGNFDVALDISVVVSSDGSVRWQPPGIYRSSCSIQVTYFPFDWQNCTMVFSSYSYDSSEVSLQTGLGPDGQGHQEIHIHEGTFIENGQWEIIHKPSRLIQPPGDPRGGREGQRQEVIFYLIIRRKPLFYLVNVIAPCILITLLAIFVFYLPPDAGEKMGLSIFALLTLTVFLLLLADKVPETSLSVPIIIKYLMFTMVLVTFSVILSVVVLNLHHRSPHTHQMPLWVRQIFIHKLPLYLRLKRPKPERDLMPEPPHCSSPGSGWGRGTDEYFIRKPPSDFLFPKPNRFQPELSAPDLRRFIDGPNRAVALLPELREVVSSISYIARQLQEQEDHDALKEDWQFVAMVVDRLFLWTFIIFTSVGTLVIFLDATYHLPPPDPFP
UniProt Q07001, 22-517 limits assumed: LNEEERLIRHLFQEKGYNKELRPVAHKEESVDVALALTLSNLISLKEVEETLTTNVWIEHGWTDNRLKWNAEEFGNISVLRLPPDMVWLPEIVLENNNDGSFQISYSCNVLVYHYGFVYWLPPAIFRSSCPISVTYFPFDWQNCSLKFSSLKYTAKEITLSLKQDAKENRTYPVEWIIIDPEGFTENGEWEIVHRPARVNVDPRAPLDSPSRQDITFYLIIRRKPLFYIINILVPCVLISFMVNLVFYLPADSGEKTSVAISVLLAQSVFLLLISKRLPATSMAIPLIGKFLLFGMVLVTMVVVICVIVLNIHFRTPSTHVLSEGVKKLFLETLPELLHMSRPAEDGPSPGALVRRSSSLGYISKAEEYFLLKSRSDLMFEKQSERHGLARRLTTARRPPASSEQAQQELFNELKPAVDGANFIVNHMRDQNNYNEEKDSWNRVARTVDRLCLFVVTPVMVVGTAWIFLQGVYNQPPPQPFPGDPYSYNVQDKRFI
UniProt P09483, 31-630 limits assumed: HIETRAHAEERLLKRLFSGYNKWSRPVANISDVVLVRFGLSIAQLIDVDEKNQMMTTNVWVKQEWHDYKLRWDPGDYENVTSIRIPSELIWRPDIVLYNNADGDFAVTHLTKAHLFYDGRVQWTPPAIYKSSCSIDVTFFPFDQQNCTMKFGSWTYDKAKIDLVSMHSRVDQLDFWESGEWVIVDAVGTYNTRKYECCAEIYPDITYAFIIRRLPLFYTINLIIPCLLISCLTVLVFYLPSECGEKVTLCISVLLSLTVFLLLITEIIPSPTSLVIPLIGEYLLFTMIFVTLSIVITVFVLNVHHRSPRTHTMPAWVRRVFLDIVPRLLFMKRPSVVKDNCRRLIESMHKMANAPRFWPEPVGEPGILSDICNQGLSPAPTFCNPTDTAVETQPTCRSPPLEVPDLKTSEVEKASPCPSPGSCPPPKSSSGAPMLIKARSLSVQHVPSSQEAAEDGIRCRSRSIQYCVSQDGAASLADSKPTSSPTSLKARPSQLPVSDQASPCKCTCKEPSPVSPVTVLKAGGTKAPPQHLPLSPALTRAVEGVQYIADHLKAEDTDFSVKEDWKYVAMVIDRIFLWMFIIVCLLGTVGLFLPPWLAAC
UniProt P12390, 25-500 limits assumed: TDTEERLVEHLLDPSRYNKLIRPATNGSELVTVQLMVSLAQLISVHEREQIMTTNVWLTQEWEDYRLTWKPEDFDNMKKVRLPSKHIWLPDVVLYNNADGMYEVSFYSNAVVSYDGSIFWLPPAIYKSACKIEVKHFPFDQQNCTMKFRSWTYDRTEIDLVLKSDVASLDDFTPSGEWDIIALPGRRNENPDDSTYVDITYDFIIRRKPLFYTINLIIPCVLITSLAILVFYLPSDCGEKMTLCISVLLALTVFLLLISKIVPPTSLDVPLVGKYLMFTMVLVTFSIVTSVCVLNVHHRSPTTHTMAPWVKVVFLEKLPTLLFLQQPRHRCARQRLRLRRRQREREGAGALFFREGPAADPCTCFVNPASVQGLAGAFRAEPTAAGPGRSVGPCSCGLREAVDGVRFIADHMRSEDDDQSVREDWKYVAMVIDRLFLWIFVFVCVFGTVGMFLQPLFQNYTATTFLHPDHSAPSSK

How the values were obtained:
[1] = system: mouse levator auris longus (LAL) muscle; assay: Extracellular recording, indirectly-evoked action potential, mouse LAL muscle; details: 10 μM
[2] = system: NMJs of embryonic zebrafish muscle (αβδγ nAChRs); assay: Predicted protection of embryonic muscle NMJs against fluorescent α-BgTX; details: no experiments on embryonic zebrafish muscle performed
[3] = system: nAChRs in X. laevis LP muscle; assay: Intracellular recording of EPSPs, MEPSPs and ACh-evoked PSPs, X. laevis LP muscle; details: for block of EPSPs: nerve-stimulation evoked, μ-PIIIA-pretreated; for block of MEPSPs: spontaneous
human α9α10 nAChR = human α9α10 nAChR (Homo sapiens, UniProt Q9GZZ6+Q9UGM1); assay: Block of ACh-gated currents (IACh) in voltage-clamped X. laevis oocytes, hα9α10; details: 10 μM, highest concentration tested
[4] = system: nAChRs in goldfish intercostal (IC) muscle; assay: Intracellular recording of MEPSPs, goldfish intercostal (IC) muscle; details: 1 μM; fibers D–F; no MEPSPs above noise
[5] = system: nAChRs at R. pipiens CP muscle NMJs; assay: Fluorescence imaging of TMR α-BgTX binding at R. pipiens CP NMJs; details: 10 μM αM-MIIIJ + 1 μg/mL TMR α-BgTX (reserved solution)
[6] = system: R. pipiens cutaneous pectoralis (CP) muscle; assay: Extracellular recording, indirectly-evoked action potentials, R. pipiens CP muscle; details: 100 μM
[7] = system: X. laevis longitudinal pectoralis (LP) muscle (V-gated Na channels); assay: Extracellular recording, action potentials evoked by direct stimulation, X. laevis LP muscle; details: five-times higher concentration than 10 μM
[8] = system: R. pipiens cutaneous pectoralis (CP) muscle; assay: Extracellular recording, synaptic responses in μ-PIIIA-treated R. pipiens CP muscle; details: 100 μM; muscle treated with μ-PIIIA
[9] = system: nACh receptors of X. laevis and goldfish muscles; assay: Concentration-dependent block of synaptically- and ACh-evoked responses, combined frog and fish NMJs; details: read-out: IC50 (aggregate estimate); estimated to be within about a factor of two of 0.1 μM; EPSPs, MEPSPs, ACh-evoked responses combined; Langmuir curves
[10] = system: X. laevis longitudinal pectoralis (LP) muscle; assay: Extracellular recording, synaptic responses in μ-PIIIA-treated X. laevis LP muscle; details: 10 μM; muscle treated with μ-PIIIA (10 μM)
human αβδε nAChR = human αβδε nAChR (Homo sapiens, UniProt P02708+P11230+Q04844+Q07001); assay: Block of ACh-gated currents (IACh) in voltage-clamped X. laevis oocytes, hαβδε; details: adult human muscle nAChR in oocytes
rat α4β2 nAChR = rat α4β2 nAChR (Rattus norvegicus, UniProt P09483+P12390); assay: Block of ACh-gated currents (IACh) in voltage-clamped X. laevis oocytes, rα4β2; details: 10 μM, highest concentration tested
[11] = system: nAChRs at goldfish IC muscle NMJs; assay: Fluorescence imaging of TMR α-BgTX binding at goldfish IC NMJs; details: 10 μM αM-MIIIJ; 1 μg/mL TMR α-BgTX, 10 min (Treatment I)
[12] = system: X. laevis longitudinal pectoralis (LP) muscle; assay: Extracellular recording, action potentials evoked by motor-nerve (indirect) stimulation, X. laevis LP muscle; details: 10 μM; replicated in three other preparations
[13] = system: neuromuscular junction of Rana pipiens; assay: Block of synaptic transmission at R. pipiens neuromuscular junction (original characterization); details: not previously reported
muscle nAChR = assay: Ion-channel target of paralytic conotoxins: muscle nAChR; details: this report

## CC[C@H](C)[C@@H]1NC(=O)[C@H](CC(C)C)NC(=O)[C@H](CCCNC(=N)N)NC(=O)[C@H](CC(=O)O)NC(=O)[C@H](CCCNC(=N)N)NC(=O)[C@H](Cc2ccccc2)NC(=O)[C@H](Cc2ccc(O)cc2)NC(=O)[C@H](CC(C)C)NC(=O)[C@@H]2CCCN2C(=O)[C@@H]2CSSC[C@@H](C(=O)O)NC(=O)[C@@H]3CSSC[C@H](NC(=O)[C@H](CCCCN)NC(=O)[C@@H]4CCC(=O)N4)C(=O)N[C@@H](CSSC[C@H](NC1=O)C(=O)N1CCC[C@H]1C(=O)N3)C(=O)N[C@@H](CO)C(=O)NCC(=O)NCC(=O)N[C@@H](CO)C(=O)N2 [αM-MIIIJ]
[1]
  block of action potentials evoked by motor-nerve stimulation: blocked muscle action potentials
[2]
  protection of NMJs of embryonic muscle against staining by fluorescent α-BgTX: only partially protect
Zebrafish αβδγ nAChR
  IC50: 0.061 µM
[3]; 0.2 μM
  block of responses to iontophoretically-applied ACh: > 50%
  block of EPSPs: > 50%
  block of MEPSPs: > 50%
[3]; 10 μM
  block of responses to iontophoretically-applied ACh: 100%
  block of EPSPs: 100%
  block of MEPSPs: 100%
Human α9α10 nAChR
  block of IACh: failed to block IACh
[4]
  block of MEPSPs: > 80%
[5]
  inhibition of TMR α-BgTX binding: did not interfere with the binding of α-BgTX
[6]
  effect on indirectly-evoked action potentials: essentially unaffected
[7]
  block of action potentials evoked by direct stimulation: essentially no effect
[8]
  effect on synaptic responses: essentially unaffected
[9]
  IC50: 0.1 µM
[10]
  block of synaptic responses: reversibly blocked
Human αβδε nAChR
  IC50 relative to zebrafish nAChRs: ~ 100 times
Rat α4β2 nAChR
  block of IACh: failed to block IACh
[11]
  TMR α-BgTX staining in presence of αM-MIIIJ: Minimal TMR α-BgTX staining
Zebrafish αβδε nAChR
  IC50: 0.058 µM
[12]
  block of action potentials evoked by nerve stimulation: completely blocked action potentials
[13]
  block of synaptic transmission: inactive in blocking synaptic transmission
Muscle nAChR
  Ion-Channel Target: muscle nAChR
